Pooled drug test results. Numbers come from NIAID ChemDB, via PubChem.

All rows: enzyme or target tests; agent: HIV-1; protein: Protease; read-out: Ki

Rows are shuffled and stem from different studies. Blank or dashed fields: not listed here.

{"SMILES": "CC[C@H](C)[C@H](NC(=O)[C@@H](Cc1ccccc1)C[C@@H](O)[C@H](Cc1ccccc1)NC(=O)OC(C)(C)C)C(=O)N[C@@H](Cc1ccccc1)C(N)=O", "read by": "absorbance", "value": "0.0018 µM"}
{"SMILES": "CC(C)(C)OC(=O)N[C@@H](Cc1ccccc1)[C@H](O)CNC[C@@H](O)[C@H](Cc1ccccc1)NC(=O)OC(C)(C)C", "read by": "substrate cleavage", "value": "0.1 µM"}
{"SMILES": "CC(C)[C@H](NC(=O)N(C)Cc1ccccn1)C(=O)N[C@@H](Cc1ccccc1)[C@@H](O)[C@H](O)[C@H](Cc1ccccc1)NC(=O)[C@@H](NC(=O)N(C)Cc1ccccn1)C(C)C", "changes": "PR-R8Q", "read by": "fluorescence", "value": "0.023 µM"}
{"SMILES": "C[C@@H]1CCCCCCCCCCOC(=O)N(C[C@@H](O)[C@H](Cc2ccccc2)NC(=O)O[C@H]2CO[C@H]3OCC[C@H]32)C1", "value": "0.0258 µM"}
{"SMILES": "CCC(c1cccc(NS(=O)(=O)c2ccc(C#N)cn2)c1)c1c(O)c2c(oc1=O)CCCC2", "read by": "substrate cleavage", "value": "0.000065 µM"}
{"SMILES": "Cc1cc(SC2=C(O)C[C@@](CCc3ccsc3)(C(C)C)OC2=O)c(C(C)(C)C)cc1C", "strain or isolate": "IIIB", "read by": "HPLC", "value": "0.00007 µM"}
{"SMILES": "CN[C@H]1CO[C@@H]2OC[C@H](OC(=O)N[C@@H](Cc3ccccc3)[C@H](O)CN(CC(C)C)S(=O)(=O)c3ccc(OC)cc3)[C@@H]21", "read by": "substrate cleavage / fluorescence", "value": "0.0314 µM"}
{"SMILES": "CSC[C@H](NC(=O)COc1cccc2cnccc12)C(=O)N[C@@H](Cc1ccccc1)[C@H](O)C(=O)N1CSC(C)(C)[C@H]1C(=O)NC(C)(C)C", "read by": "HPLC", "value": "0.000088 µM"}
{"SMILES": "CC[C@H](C)[C@H](NC(=O)[C@@H]1CCCN1C[C@@H](O)[C@H](Cc1ccccc1)NC(=O)[C@H](CC(N)=O)NC(=O)[C@H](CC(C)C)NC(C)=O)C(=O)N[C@H](C(N)=O)C(C)C", "read by": "fluorescence", "value": "0.018 µM"}
{"SMILES": "CC(C)[C@H](NC(=O)COc1cccc(N(C)C)c1)C(=O)N[C@@H](Cc1ccccc1)[C@H](O)C(=O)N1CSC(C)(C)[C@H]1C(=O)NC(C)(C)C", "read by": "HPLC", "value": "0.000318 µM"}
{"SMILES": "CC[C@H](C)[C@H](NC(=O)[C@H](Cc1ccccc1)NC[C@@H](O)[C@H](Cc1ccccc1)NC(=O)OC(C)(C)C)C(=O)N[C@@H](Cc1ccccc1)C(N)=O", "read by": "absorbance", "value": "0.0055 µM"}
{"SMILES": "CC[C@H](C)[C@H](NC(=O)[C@H](Cc1ccccc1)NC[C@H](O)[C@H](Cc1ccccc1)NC(=O)[C@@H](NC(=O)[C@H](CC(C)C)NC(C)=O)C(C)C)C(=O)N[C@H](C(N)=O)C(C)C", "read by": "fluorescence", "value": "0.0015 µM"}
{"SMILES": "CC(C)(C)OC(=O)N[C@@H](Cc1ccccc1)[C@H](O)C[C@@H](Cc1ccccc1)C(=O)N[C@@H](CCC(N)=O)C(=O)N[C@@H](Cc1ccccc1)C(N)=O", "read by": "absorbance", "value": "0.028 µM"}
{"SMILES": "CC[C@H](C)[C@@H]1NC(=O)[C@@H](NC[C@H](O)[C@H](Cc2ccccc2)NC(=O)[C@@H](NC(=O)[C@H](CC(C)C)NC(C)=O)C(C)C)Cc2ccc(cc2)OCCCNC1=O", "read by": "fluorescence", "value": "0.0006 µM"}
{"SMILES": "CC(C)(C)OC(=O)NCCC(=O)Nc1cccc(C(c2c(O)c3c(oc2=O)CCCCCC3)C2CC2)c1", "value": "0.015 µM"}
{"SMILES": "CO/C(=N\\[N+](=O)[O-])NCCCC(C)(C)CN(C[C@@H](O)[C@H](Cc1ccccc1)NC(=O)O[C@H]1CO[C@H]2OCC[C@H]21)S(=O)(=O)c1ccc(OC)cc1", "read by": "fluorescence", "value": "<0.001 µM"}
{"SMILES": "CC(C)(C)OC(=O)N[C@@H](Cc1ccccc1)[C@H](O)C[C@@H](Cc1ccccc1)C(=O)N[C@@H](CCC(=O)O)C(=O)N[C@@H](Cc1ccccc1)C(N)=O", "read by": "absorbance", "value": "0.0006 µM"}
{"SMILES": "CC(C)(CCN)CN(C[C@@H](O)[C@H](Cc1ccccc1)NC(=O)O[C@H]1CO[C@H]2OCC[C@H]21)S(=O)(=O)c1ccc(N)cc1", "read by": "fluorescence", "value": "<0.001 µM"}
{"SMILES": "CC[C@H](C)[C@@H]1NC(=O)[C@@H](NC[C@@H](O)[C@H](Cc2ccccc2)NC(=O)[C@@H](NC(=O)[C@H](CC(C)C)NC(C)=O)C(C)C)Cc2ccc(cc2)OCCCNC1=O", "read by": "fluorescence", "value": "0.0006 µM"}
{"SMILES": "CC[C@H](C)[C@H](NC(=O)[C@H](Cc1ccccc1)C[C@H](O)[C@H](Cc1ccccc1)NC(=O)OC(C)(C)C)C(=O)N[C@@H](Cc1ccccc1)C(N)=O", "read by": "absorbance", "value": "0.00022 µM"}
{"SMILES": "CSC[C@H](NC(=O)COc1cccc(Nc2ccccc2)c1)C(=O)N[C@@H](Cc1ccccc1)[C@H](O)C(=O)N1CSC(C)(C)[C@H]1C(=O)NC(C)(C)C", "read by": "HPLC", "value": "0.000184 µM"}
{"SMILES": "COC(=O)[C@@H](NC(=O)[C@@H](NC(=O)CC[C@H](O)[C@H](Cc1ccccc1)NC(=O)[C@H](C)NC(=O)OCc1ccccc1)C(C)C)C(C)C", "value": "0.12 µM"}
{"SMILES": "CNC(=O)[C@@H](NC(=O)[C@H](Sc1ccccc1)[C@H](O)[C@@H](O)[C@@H](Sc1ccccc1)C(=O)N[C@H](C(=O)NC)C(C)C)C(C)C", "read by": "fluorescence", "value": "0.0063 µM"}
{"SMILES": "CC(C)[C@H](NC(=O)COc1cccc2cnccc12)C(=O)N[C@@H](Cc1ccccc1)[C@H](O)C(=O)N1CSC[C@H]1C(=O)NC(C)(C)C", "read by": "HPLC", "value": "0.001498 µM"}
{"SMILES": "Nc1cccc(CN2C(=O)N(Cc3cccc(N)c3)[C@H](Cc3ccccc3)[C@H](O)[C@@H](O)[C@H]2Cc2ccccc2)c1", "read by": "HPLC", "value": "0.00023 µM"}
{"SMILES": "CCC(c1cccc(NS(=O)(=O)c2ccc(C#N)cn2)c1)c1c(O)c2c(oc1=O)CCCCCC2", "read by": "substrate cleavage", "value": "0.000007 µM"}
{"SMILES": "Cc1c(O)cccc1C(=O)N[C@@H](Cc1ccccc1)[C@H](O)C(=O)N1CSC(C)(C)[C@H]1C(=O)NC(C)(C)C", "strain or isolate": "IIIB", "value": "0.0514 µM"}
{"SMILES": "CC(C)CN(C[C@@H](O)[C@H](Cc1ccccc1)NC(=O)O[C@H]1CO[C@H]2OCC[C@H]21)S(=O)(=O)c1ccc(C(N)=O)cc1", "value": "0.0000089 µM"}
{"SMILES": "CC(C)[C@H](NC(=O)c1ccc2ccccc2n1)C(=O)N[C@@H](Cc1ccccc1)[C@H](O)CN1CC[C@@H](OCc2ccncc2)C[C@H]1C(=O)NC(C)(C)C", "strain or isolate": "IIIB", "read by": "fluorescence", "value": "0.000031 µM"}
{"SMILES": "CC(C)(C)OC(=O)N[C@@H](Cc1ccccc1)[C@H](O)C[C@H](Cc1ccccc1)C(=O)N[C@@H](CCC(N)=O)C(=O)N[C@@H](Cc1ccccc1)C(N)=O", "read by": "absorbance", "value": "0.019 µM"}
{"SMILES": "O=S1CC(CO)(Cc2ccccc2)C(O)C(CO)(Cc2ccccc2)C1", "value": "<25 µM"}
{"SMILES": "CC(C)CN([C@H](CO)CCCNC(=O)[C@H](Cc1cccc2ccccc12)NC(=O)CC(F)(F)F)S(=O)(=O)c1ccc(N)cc1", "strain or isolate": "NL4-3", "read by": "fluorescence", "value": "0.0016 µM"}
{"SMILES": "CCC(Cc1ccccc1)c1cc(O)c(C(CC)c2ccccc2)c(=O)o1", "read by": "substrate cleavage", "value": "0.04 µM"}
{"SMILES": "CCC(c1cccc(NS(=O)(=O)c2ccc(C#N)cn2)c1)c1c(O)c2c(oc1=O)CCCCC2", "read by": "substrate cleavage", "value": "0.000018 µM"}
{"SMILES": "CSC[C@H](NC(=O)COc1cccc2cnccc12)C(=O)N[C@@H](Cc1ccccc1)[C@H](O)C(=O)N1CSC(C)(C)[C@H]1C(=O)NC(C)(C)C", "value": "0.0000023 µM"}
{"SMILES": "CCC(C1=C(O)C2CCCC2OC1=O)c1ccccc1", "read by": "substrate cleavage", "value": ">2 µM"}
{"SMILES": "O=c1oc2ccccc2c(O)c1CCCOc1ccccc1", "value": "~1 µM"}
{"SMILES": "CC(C)(C)OC(=O)N[C@@H](Cc1ccccc1)[C@@H](O)C[C@@H](Cc1ccc(OCCN2CCOCC2)cc1)C(=O)N[C@H]1c2ccccc2C[C@H]1O", "changes": "PR-R8Q", "read by": "fluorescence", "value": "0.00014 µM"}
{"SMILES": "CCC(C1=C(O)C2CCCCC2OC1=O)c1ccccc1", "read by": "substrate cleavage", "value": "0.67 µM"}

For reference, 3 entries again:

SMILES | strain or isolate | changes | read by | value
CO/C(=N\[N+](=O)[O-])NCCCC(C)(C)CN(C[C@@H](O)[C@H](Cc1ccccc1)NC(=O)O[C@H]1CO[C@H]2OCC[C@H]21)S(=O)(=O)c1ccc(OC)cc1 |  |  | fluorescence | <0.001 µM
CSC[C@H](NC(=O)COc1cccc2cnccc12)C(=O)N[C@@H](Cc1ccccc1)[C@H](O)C(=O)N1CSC(C)(C)[C@H]1C(=O)NC(C)(C)C |  |  |  | 0.0000023 µM
CC(C)(C)OC(=O)N[C@@H](Cc1ccccc1)[C@H](O)C[C@@H](Cc1ccccc1)C(=O)N[C@@H](CCC(=O)O)C(=O)N[C@@H](Cc1ccccc1)C(N)=O |  |  | absorbance | 0.0006 µM